Results as given in ChEMBL document CHEMBL1123306, “31P nuclear magnetic resonance spectroscopic observation of the intracellular transformations of oncostatic cyclophosphamide metabolites” (1986).

Assays:
Homo sapiens [1] = species on record: Homo sapiens; assay: Compound was evaluated for its Intracellular transformation in U937 human cells, which followed first order kinetics and k, first order rate constant value was reported at 23 degree Centigrade; details: u-937
Homo sapiens [2] = species on record: Homo sapiens; assay: Compound was evaluated for its Intracellular transformation in U937 human cells, which followed first order kinetics, and t1/2 value was reported at 23 degree Centigrade; details: u-937
Homo sapiens [3] = species on record: Homo sapiens; assay: Compound was evaluated for its Intracellular transformation in U937 human cells, which followed first order kinetics, and t1/2 value was reported at 37 degree Celsius in a 70 mM phosphate buffer at pH 7.; details: u-937, pH 7

Question: How did the k (Homo sapiens [1]) turn out when `NP(=O)(O)N(CCCl)CCCl` was run?
Answer: The k was 0.0054 min⁻¹.

Question: And the T1/2 (Homo sapiens [2])?
Answer: Its T1/2 is 2.08 h.

Question: What about the T1/2 (Homo sapiens [3]) of the same compound?
Answer: The T1/2 was 0.8 h.
